Reference: article PMC3166015 (Emerging Infectious Diseases, 2011)

Target: NA activity of oseltamivir-resistant (OR, H275Y) pandemic (H1N1) 2009 virus (Influenza A virus, UniProt C3W5S3, H275Y)
Assay type: biochemical
Conditions: read-out: IC50, Mean ± SD

In the case of `CC(=O)N[C@H]1[C@H]([C@H](O)[C@H](O)CO)OC(C(=O)O)=C[C@@H]1N=C(N)N` [Zanamivir, zanamivir], the IC50 is reported as 0.36 nM.
